{"source": "paper PMC7145534", "about": "“Are the intrinsically disordered linkers involved in SSB binding to accessory proteins?” (Nucleic Acids Research, 2019)", "system": "χ", "experiment": "Sedimentation velocity, effect of P15 on χ", "assay_type": "binding, Escherichia coli", "data": [{"substance": "P15: SSB-Ct peptide, C-terminal 15 amino acids of E. coli SSB, contains acidic tip, no PXXP motifs (PSNEPPMDFDDDIPF)", "values": [{"measurement": "assembly state of χ", "setting": "30-fold excess P15", "result": "monomeric before and after P15 binding"}, {"measurement": "sedimentation coefficient s20,w of χ with peptide", "setting": "30-fold excess P15, BTP pH 8.0, 50 mM NaCl, χ alone 1.76 S", "result": 1.80, "unit": "S"}]}]}
